Experimental data published in patent US11229224B2, “Phytochemical compositions used as disinfectants and food preservatives” (priority 2012, dated 2022).

Legend:
[1] = test system: L. monocytogenes, E. coli O157:H7 and S. montevideo; conditions: vapor generated by 400 μl AITC after 4 and 2 days; cited from earlier work
[2] = test system: E. coli O157:H7; assay: Diffusion technique, inhibition zone on agar; conditions: 1:10 dilution of aqueous hibiscus extract, 10 μL on plate, 35±1° C., 24 h

Molecule	decrease on lettuce [1] [Log]	Inhibition diameter [2] [mm]
C=CCN=C=S [AITC]	8	–
penicillin	–	15
